# Measurements taken from article PMC4985751, “Enhanced Cationic Charge is a Key Factor in Promoting Staphylocidal Activity of α-Melanocyte Stimulating Hormone via Selective Lipid Affinity” (Scientific Reports, 2016).
# Tests used:
# [1] = Trp fluorescence blue shift in bacterial mimic SUVs (1:1); details: DMPC:DMPG (1:1, w/w) SUVs vs 10 mM TES buffer; peptide 12.5 μM, lipid 726 μM (L:P 58:1); 25 °C; excitation 295 nm
# [2] = Trp fluorescence blue shift in mammalian mimic SUVs; details: DMPC SUVs vs 10 mM TES buffer; peptide 12.5 μM, lipid 726 μM (L:P 58:1); 25 °C; excitation 295 nm; three scans averaged
# [3] = Trp fluorescence blue shift in bacterial mimic SUVs (7:3); details: DMPC:DMPG (7:3, w/w) SUVs vs 10 mM TES buffer; peptide 12.5 μM, lipid 726 μM (L:P 58:1); 25 °C; excitation 295 nm; three scans averaged
substance,measurement,setting,value
Ac-KYKMKHFRWGKPV-NH2 [KKK-MSH],Blue shift in emission maximum of Trp residue,[1],12 nm
same,Blue shift in emission maximum of Trp residue,[2],0 nm
same,Blue shift in emission maximum of Trp residue,[3],11 nm
